Assay results published in patent US20090281028A1.

T1: human Kv1.1 channel (human), Q09470
T1 chain: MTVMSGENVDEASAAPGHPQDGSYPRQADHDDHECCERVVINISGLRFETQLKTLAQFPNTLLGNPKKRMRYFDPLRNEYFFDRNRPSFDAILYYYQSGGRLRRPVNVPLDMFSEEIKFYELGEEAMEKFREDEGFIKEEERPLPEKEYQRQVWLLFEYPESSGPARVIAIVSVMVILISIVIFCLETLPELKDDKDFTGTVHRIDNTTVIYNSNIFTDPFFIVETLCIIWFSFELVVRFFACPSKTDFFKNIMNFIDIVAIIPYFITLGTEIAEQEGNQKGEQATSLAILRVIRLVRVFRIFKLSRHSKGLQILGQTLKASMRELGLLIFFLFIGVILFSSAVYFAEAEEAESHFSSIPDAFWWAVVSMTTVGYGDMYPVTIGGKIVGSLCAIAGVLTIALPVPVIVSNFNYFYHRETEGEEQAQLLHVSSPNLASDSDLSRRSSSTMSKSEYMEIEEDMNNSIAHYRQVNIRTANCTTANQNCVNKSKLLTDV

B1: OSK1 G1A (peptide)
peptide: AVIINVKCKISRQCLEPCKKAGMRFGKCMNGKCHCTPK
modifications: not checked
B2: OSK1 V2A (peptide)
peptide: GAIINVKCKISRQCLEPCKKAGMRFGKCMNGKCHCTPK
modifications: not checked
B3: OSK1 I3A (peptide)
peptide: GVAINVKCKISRQCLEPCKKAGMRFGKCMNGKCHCTPK
modifications: not checked
B4: OSK1 I4A (peptide)
peptide: GVIANVKCKISRQCLEPCKKAGMRFGKCMNGKCHCTPK
modifications: not checked
B5: OSK1 N5A (peptide)
peptide: GVIIAVKCKISRQCLEPCKKAGMRFGKCMNGKCHCTPK
modifications: not checked
B6: OSK1 V6A (peptide)
peptide: GVIINAKCKISRQCLEPCKKAGMRFGKCMNGKCHCTPK
modifications: not checked
B7: OSK1 K7A (peptide)
peptide: GVIINVACKISRQCLEPCKKAGMRFGKCMNGKCHCTPK
modifications: not checked
B8: OSK1 K9A (peptide)
peptide: GVIINVKCAISRQCLEPCKKAGMRFGKCMNGKCHCTPK
modifications: not checked
B9: OSK1 I10A (peptide)
peptide: GVIINVKCKASRQCLEPCKKAGMRFGKCMNGKCHCTPK
modifications: not checked
B10: OSK1 S11A (peptide)
peptide: GVIINVKCKIARQCLEPCKKAGMRFGKCMNGKCHCTPK
modifications: not checked
B11: OSK1 R12A (peptide)
peptide: GVIINVKCKISAQCLEPCKKAGMRFGKCMNGKCHCTPK
modifications: not checked
B12: OSK1 Q13A (peptide)
peptide: GVIINVKCKISRACLEPCKKAGMRFGKCMNGKCHCTPK
modifications: not checked
B13: OSK1 L15A (peptide)
peptide: GVIINVKCKISRQCAEPCKKAGMRFGKCMNGKCHCTPK
modifications: not checked
B14: OSK1 E16A (peptide)
peptide: GVIINVKCKISRQCLAPCKKAGMRFGKCMNGKCHCTPK
modifications: not checked
B15: OSK1 P17A (peptide)
peptide: GVIINVKCKISRQCLEACKKAGMRFGKCMNGKCHCTPK
modifications: not checked
B16: OSK1 K19A (peptide)
peptide: GVIINVKCKISRQCLEPCAKAGMRFGKCMNGKCHCTPK
modifications: not checked

Experiments:
[1] = target: T1, human Kv1.1 channel (human), Q09470; test: cell-based or functional assay
[2] = target: human Kv1.3 channel (human), P22001; test: cell-based or functional assay

| Binder | Kv1.1 IC50 (IonWorks electrophysiology) [1] [pM] | WB/IFNg IC50 (human whole blood) [2] [nM] | WB/IL-2 IC50 (human whole blood) [2] [nM] | Kv1.3 IC50 (IonWorks electrophysiology) [2] [pM] |
| --- | --- | --- | --- | --- |
| B1 | 13.9 | 0.119 | 0.122 |  |
| B2 | 9.94 | 0.104 | 0.0884 | 81.8 |
| B3 | 10.6 | 0.0992 | 0.0883 | 96.6 |
| B4 | 16.9 | 0.0873 | 0.111 | 195 |
| B5 | 14 | 0.067 | 0.0679 | 160 |
| B6 | 12.8 | 0.0805 | 0.0733 | 174 |
| B7 | 21.9 | 0.0591 | 0.0675 | 181 |
| B8 | 40.6 | 0.0711 | 0.0796 | 166 |
| B9 | 4.46 | 0.0296 | 0.05 | 91.2 |
| B10 | 113 | 0.11 | 0.09 | 40.8 |
| B11 | 55.9 | 0.155 | 0.123 | 390 |
| B12 | 21.6 | 0.133 | 0.148 | 249 |
| B13 | 15 | 0.107 |  | 43.1 |
| B14 | 6.87 |  |  | 21.6 |
| B15 | 9.08 |  |  | 33.9 |
| B16 | 16.9 |  |  | 210 |
